PubChem BioAssay AID1259414, Drosophila RNAi Screening Center, 2018
The deposit covers about 24,000 reagents; shown is a random part of those with a known target gene and a result. In the full data, about 1,210 (5%) are marked active. 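Inactive calls also include excluded dsRNAs with several or no targets, genes unexpressed in JW18, and well A1, regardless of score.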 Names joined by + are all predicted targets of the reagent. Reagent sequences are not shown.

Screen: 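Fly genes that alter Wolbachia amount inside host cells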 (primary screen)
Cell system: Drosophila JW18 cells infected with Wolbachia
Knock-down reagent: long dsRNA against Drosophila genes, 0.25 µg dsRNA per well of a 384-well plate
Timing: 5 days
Conditions: cells persistently infected with Wolbachia before knock-down; no added drug
Measurement: 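Automated imaging of bacterial rRNA staining divided by host cell count, reported as plate-normalised robust z-score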
Reading the numbers: Wolbachia per cell robust z: higher = more Wolbachia per host cell than the plate typical
Active means: 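Active if absolute robust z reaches 1.5 in two or more of three replicates, leaving out multi- or no-target dsRNAs, genes unexpressed in JW18 and A1 wells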

no.	Gene	dsRNA	Wolbachia per cell robust z, rep 1	Wolbachia per cell robust z, rep 2	Wolbachia per cell robust z, rep 3	outcome
1	CG11226	DRSC11639	-1.11	-9.63	-1.32	inactive
2	vimar (visceral mesodermal armadillo-repeats)	DRSC05026	1.8	0.855	1.28	inactive
3	Or45b (Odorant receptor 45b)	DRSC07488	-0.473	0.521	-0.381	inactive
4	ITP (Ion transport peptide)	DRSC04222	-0.411	0.365	-0.275	inactive
5	sing (singles bar)	DRSC19530	0.411	0.569	0.723	inactive
6	CG4789	DRSC19918	0.093	-0.00859	0.544	inactive
7	CG42753	DRSC41401	-0.569	0.632	-1.02	inactive
8	Ref2 (RNA and export factor binding protein 2)	DRSC02563	0.0395	1.38	1.3	inactive
9	CG14143	DRSC10146	0.359	0.185	0.0051	inactive
10	CG14143	DRSC26503	-0.757	-0.351	-0.821	inactive
11	CG12164	DRSC06115	-0.911	-1.98	-0.238	inactive
12	CG12164	DRSC21777	1.14	-1.33	0.704	inactive
13	CG12164	DRSC25698	-2.24	-1.23	-3.16	inactive
14	Nadk2 (NAD kinase 2, mitochondrial)	DRSC07072	-0.0509	-0.285	-0.555	inactive
15	Nadk2 (NAD kinase 2, mitochondrial)	DRSC41390	-1.08	0.268	-2.85	inactive
16	CG3788	DRSC04418	0.656	-3.65	1.61	inactive
17	CG3788	DRSC24502	1.34	-0.0784	0.123	inactive
18	CG15517	DRSC15056	0.261	0.246	-1.8	inactive
19	CG11857	DRSC14411	0.843	-1.49	0.878	inactive
20	Skadu	DRSC40619	-0.0875	-0.481	-0.179	inactive
21	sra (sarah)	DRSC17015	0.396	0.154	0.684	inactive
22	CG4009	DRSC15536	0.0594	0.892	-7.92	inactive
23	CG31715	DRSC21607	0.599	0.544	0.586	inactive
24	CG13203	DRSC06327	-7.56	-1.8	0.396	inactive
25	CG13203	DRSC29202	1.96	2.12	1.59	inactive
26	Alms1a + Alms1b	DRSC27416	0.0252	-6.26	0.0915	inactive
27	beta3GalTII (beta-1,3-Galactosyltransferase II)	DRSC07253	-1.6	-5.11	0.602	active
28	beta3GalTII (beta-1,3-Galactosyltransferase II)	DRSC29091	-2.83	-1.27	-0.981	inactive
29	exd (extradenticle)	DRSC20330	-0.0314	1.1	-3.27	inactive
30	exd (extradenticle)	DRSC30099	1.05	1.83	0.83	inactive
31	exd (extradenticle)	DRSC41279	-1.62	0.307	-0.584	inactive

Next part; the last 5 above are carried over.
no.	Gene	dsRNA	Wolbachia per cell robust z, rep 1	Wolbachia per cell robust z, rep 2	Wolbachia per cell robust z, rep 3	outcome
27	beta3GalTII (beta-1,3-Galactosyltransferase II)	DRSC07253	-1.6	-5.11	0.602	active
28	beta3GalTII (beta-1,3-Galactosyltransferase II)	DRSC29091	-2.83	-1.27	-0.981	inactive
29	exd (extradenticle)	DRSC20330	-0.0314	1.1	-3.27	inactive
30	exd (extradenticle)	DRSC30099	1.05	1.83	0.83	inactive
31	exd (extradenticle)	DRSC41279	-1.62	0.307	-0.584	inactive
32	CG1504	DRSC20513	-0.017	0.44	-0.297	inactive
33	CG1504	DRSC26901	0.77	0.877	-2.26	inactive
34	CG13438	DRSC06398	0.402	-0.065	0.781	inactive
35	CG7685	DRSC16285	0.0387	0.0423	1.12	inactive
36	CG7685	DRSC27560	0.71	-0.16	-0.303	inactive
37	CG3402	DRSC08567	-0.184	0.509	0.89	inactive
38	Syx1A (Syntaxin 1A)	DRSC15359	3.05	1.42	5.42	active
39	Syx1A (Syntaxin 1A)	DRSC21554	0.676	0.478	0.59	inactive
40	hig (hikaru genki)	DRSC07628	-0.518	0.197	0.427	inactive
41	hig (hikaru genki)	DRSC22827	-0.196	-0.721	-0.0363	inactive
42	hig (hikaru genki)	DRSC22899	0.396	-1.59	-0.0171	inactive
43	hig (hikaru genki)	DRSC26925	-0.419	0.471	-0.768	inactive
44	Tg (Transglutaminase)	DRSC03047	0.315	-0.269	0.273	inactive
45	Tg (Transglutaminase)	DRSC29048	1.23	1.05	1.8	inactive
46	su(f) (suppressor of forked)	DRSC20907	1.13	-2.54	0.316	inactive
47	su(f) (suppressor of forked)	DRSC40823	-0.0837	-0.209	0.304	inactive
48	alpha-Man-IIb (alpha-Mannosidase class II b)	DRSC16898	0.256	0.373	0.533	inactive
49	alpha-Man-IIb (alpha-Mannosidase class II b)	DRSC24186	-0.604	-1.55	-0.0915	inactive
50	alpha-Man-IIb (alpha-Mannosidase class II b)	DRSC38984	-0.243	0.408	1.19	inactive
51	lncRNA:CR42862 (long non-coding RNA:CR42862)	DRSC08348	-0.571	0.623	-1.09	inactive
52	lncRNA:CR42862 (long non-coding RNA:CR42862)	DRSC27596	-1.21	-1.3	0.248	inactive
53	lncRNA:CR42862 (long non-coding RNA:CR42862)	DRSC36563	0.387	1.58	0.0228	inactive
54	tutl (turtle)	DRSC00441	0.829	-0.495	0.749	inactive
55	tutl (turtle)	DRSC00442	0.648	0.238	-0.466	inactive
56	tutl (turtle)	DRSC00443	-3.65	0.793	-0.23	inactive
57	tutl (turtle)	DRSC27605	-0.393	-1.02	0.646	inactive
58	CG11562	DRSC00316	0.22	-0.0794	-0.196	inactive
59	CG31145	DRSC14206	-1.88	-0.859	0.224	inactive
60	CG31145	DRSC14671	-2.04	0.73	0.614	inactive
61	CG31145	DRSC26758	0.699	0.972	2.54	inactive
62	Vha100-1 (Vacuolar H[+] ATPase 100kD subunit 1)	DRSC14148	-1.48	-0.237	0.0897	inactive
63	Vha100-1 (Vacuolar H[+] ATPase 100kD subunit 1)	DRSC26617	0.0902	1.97	0.176	inactive
64	Vha100-1 (Vacuolar H[+] ATPase 100kD subunit 1)	DRSC38989	0.855	-0.0706	1.11	inactive
65	slow (slowdown)	DRSC08589	0.0198	-1.15	-0.441	inactive
66	slow (slowdown)	DRSC08590	-1.75	-0.131	-0.447	inactive
67	slow (slowdown)	DRSC26083	0.559	-0.698	0.506	inactive
68	kirre (kin of irre)	DRSC18785	0.0492	-0.526	-0.601	inactive
69	kirre (kin of irre)	DRSC24733	0.211	0.0507	-0.562	inactive
70	kirre (kin of irre)	DRSC40552	-2.32	-0.141	-0.398	inactive
